The record followed here is publication PMC8646600 (Advanced Science, 2021).

This experiment deals with T1, full-length SARS-CoV spike expressed on cells (SARS-CoV, strain , UniProt P59594).
T1 construct: source: HEK293T, transiently transfected, on cells
Description: flow cytometry on cells; […] MFI in EGFP-positive cells. The following applies: one partner purified. In general terms: In flow cytometry, cells or beads pass a laser one at a time.

B1: S-B8 full-length human IgG4e1(S228P) antibody (antibody, V domains shown)
VH: QVQLVQSGGGLIQPGGSLRLSCAASGFTVSLSHMNWVRQAPGKGLEWVSITYGDGNSDYADSVKGRFTISRDNSKNTLYLQMNSLRAEDTAVYYCAREYYYGMDVWGQGTTVTVSS
VL: DIVMTQSPDSLAVSLGERATINCKSSQSVLYSSNNKNYLAWYQQKPGQPPKLLIYWASTRESGVPDRFSGSGSGTDFTLTISSLQAEDVAVYYCQQYYSLPLTFGGGTKLEIK
notes: also called S-B8 IgG; source: HEK293F, secreted; clarified culture supernatant, and purified (Mabselect)
For the molecule B1, the binding result is “no binding”.
